These results are taken from PMC11109429.

The exact form of at least one protein or probe is not confirmed.

This data set has as its target ComE D58E (phosphomimetic) (Streptococcus pneumoniae D39) (UniProt Q79CK7). The data set is described as follows: DNase I footprinting. The settings on record: recombinant protein; protein details: His6 (C-ter per strain table); label: 5' FAM; probe letters rebuilt from the primers and the genome.

“TAATTCCCAATAAAATCAGCTCTTTACTAGACAACCCCTTCAGCTTTTCAATAAAGCCTATTGATTTCAAAATGAATCCTTTCTCTCCAAATCTGCTGATTCAGATAATAGTAAGCTATCCTATATTGTACCACTTTTTTAGCAATTTGAAAACAAAGGAAACGTTTTCCAAAATAAAAACCCTATTTTATCCACCATATCAAGGCT (double strand) [PtacL footprinting probe]”: the binding result was “binds”.
